Assay results as given in PubChem BioAssay AID488890 (Southern Research Specialized Biocontainment Screening …, 2010).
The other results are listed elsewhere or left out. Results filed as inconclusive are left out. The rule behind the calls is not given here. Some salts or complexes appear as unconnected parts, following the source record.

Assay: growth inhibition of non-replicating M. tuberculosis (AID 488890);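 note: plate controls were DMSO cells for no effect and high antibiotic wells for full effect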
Details: Mycobacterium tuberculosis non-replicating, at 25 µM, stronger effect = higher value

Row | SMILES | inhibition [%]
1 | Cc1ccc(C)c(NP(C)(=O)Oc2ccccc2)c1 (configuration not stated) | -0.6
2 | Cc1cc(C)cc(OP(C)(=O)Nc2ccccn2)c1 (configuration not stated) | 3.91
3 | CP(=O)(Nc1cccc(Br)c1)Oc1ccccc1 (configuration not stated) | 11.3
4 | COc1ccccc1OP(C)(=O)Nc1cccc(Br)c1 (configuration not stated) | -6.39
5 | CCOC(=O)c1ccc(NP(C)(=O)Oc2cc(C)cc(C)c2)cc1 (configuration not stated) | 35.3
6 | Cc1cc(C)cc(OP(C)(=O)Nc2ccc(C)cc2C)c1 (configuration not stated) | 15.8
7 | CC1=NCCc2c1[nH]c1ccccc21.O=[N+]([O-])c1cc([N+](=O)[O-])c(O)c([N+](=O)[O-])c1 | 2.69
8 | O=C(O)c1cccc(Nc2c([N+](=O)[O-])cc([N+](=O)[O-])cc2[N+](=O)[O-])c1 | 5.8
9 | COc1ccccc1OP(C)(=O)Nc1c(C)cccc1C (configuration not stated) | -1.1
10 | CN1CCCCC1COC(=O)C1(O)c2ccccc2CCc2ccccc21 (configuration not stated) | 8.87
11 | CCCOc1ccc(NP(C)(=O)Oc2ccc(Cl)cc2)cc1 (configuration not stated) | 34
12 | CP(=O)(Nc1ccc(SC(F)(F)F)cc1)Oc1ccccc1 (configuration not stated) | 30.9
13 | CCOC(=O)C(CC)C1=NC(C)(C)Cc2ccccc21.O=[N+]([O-])c1cc([N+](=O)[O-])c(O)c([N+](=O)[O-])c1 (configuration not stated) | -2.89
14 | CC1=C2N=C(C=C3N=C(C(C)=C4[N-][C@@](C)([C@@H]5N=C1[C@](C)(CCC(=O)NC[C@@H](C)OP(=O)([O-])O[C@H]1[C@@H](O)[C@@H](n6cnc7cc(C)c(C)cc76)O[C@@H]1CO)[C@H]5CC(N)=O)[C@@](C)(CC(N)=O)[C@@H]4CCC(N)=O)[C@@](C)(CC(N)=O)[C@@H]3CCC(N)=O)C(C)(C)[C@@H]2CCC(N)=O.[C-]#N.[Co+3] | 72.3
15 | O=[N+]([O-])c1cc([N+](=O)[O-])c(Nc2nnnn2CCO)c([N+](=O)[O-])c1 | -7.9
16 | Cc1nc2ccc3ccccc3c2s1.O=[N+]([O-])c1cc([N+](=O)[O-])c(O)c([N+](=O)[O-])c1 | 20.9
17 | O=[N+]([O-])c1cc([N+](=O)[O-])c(-n2nnc3ccccc32)c([N+](=O)[O-])c1 | 0.27
18 | CCOC(=O)c1ccc(NP(C)(=O)Oc2ccc(OC)cc2)cc1 (configuration not stated) | 28.7
19 | O=[N+]([O-])c1cc([N+](=O)[O-])c(O)c([N+](=O)[O-])c1.c1ccc(Oc2ccncc2)cc1 | -6.89
20 | CCOP(C)(=S)SCC(=O)NC(C)C(=O)O (configuration not stated) | -2.22
21 | CP(=O)(Nc1ccccn1)Oc1ccc(Cl)cc1 (configuration not stated) | -11.4
22 | CP(=O)(Oc1ccccc1)OC(c1ccccc1)C(F)(F)F (configuration not stated) | 0.58

Row | SMILES | inhibition [%]
23 | Cc1cccc(C)c1OP(C)(=O)Nc1ccc(SC(F)(F)F)cc1 (configuration not stated) | 32
24 | CP(=O)(Nc1ccc(SC(F)(F)F)cc1)Oc1ccc(Cl)cc1 (configuration not stated) | 22
25 | Cc1cc(C)cc(OP(C)(=O)Nc2ccc(SC(F)(F)F)cc2)c1 (configuration not stated) | 22.9
26 | CP(=O)(NC(=O)Nc1ccccc1)Oc1ccccc1 (configuration not stated) | 8.44
27 | CCc1ccc(OP(C)(=O)N2CCN(c3ccc([N+](=O)[O-])cc3)CC2)cc1 (configuration not stated) | 38.5
28 | CP(=S)(Nn1cnnc1)Oc1ccccc1 (configuration not stated) | -0.47
29 | CP(=O)(Nc1ccccc1Br)Oc1ccccc1 (configuration not stated) | 9.43
30 | COc1ccccc1OP(C)(=O)Nc1ccccc1 (configuration not stated) | 5.61
31 | Cc1ccc(NP(C)(=O)Oc2ccccc2)c(C)c1 (configuration not stated) | 8.85
32 | COc1ccccc1OP(C)(=O)Nc1ccc(C)cc1 (configuration not stated) | 4.98
33 | CCOC(=O)c1ccc(NP(C)(=O)Oc2ccccc2)cc1 (configuration not stated) | -17.6
34 | Cc1cc(C)cc(OP(C)(N)=O)c1 (configuration not stated) | 18.8
35 | COc1ccc(OP(C)(=O)Nc2cccc(F)c2)cc1 (configuration not stated) | -12.7
36 | COc1ccccc1OP(C)(=O)Nc1cc(Cl)ccc1C (configuration not stated) | -5.23
37 | O=[N+]([O-])c1cc([N+](=O)[O-])c(Nc2cccnc2)c([N+](=O)[O-])c1 | 35.6
38 | O=[N+]([O-])c1ccc2c(c1)C=Nc1ccccc1O2 | 73.1
39 | Cc1cccc(C)c1OP(C)(N)=O (configuration not stated) | -8.97
40 | CC(C)(C)c1ccc(OP(C)(=O)Nc2ccc(SC(F)(F)F)cc2)cc1 (configuration not stated) | 10.2
41 | CCN(CC)CCCOC(=O)C(O)(c1ccccc1)c1ccccc1 | -2.3
42 | Cc1c(NP(C)(=O)Oc2ccc(C(C)C)cc2)c(=O)n(-c2ccccc2)n1C (configuration not stated) | -0.53
43 | COc1ccccc1OP(C)(=O)Nc1ccc(C)cc1C (configuration not stated) | 59.6
44 | CP(=O)(Nc1ccccn1)Oc1ccccc1 (configuration not stated) | -3.93

Row | SMILES | inhibition [%]
45 | CCc1ccc(OP(C)(=O)O)cc1 | -4.6
46 | COc1ccccc1OP(C)(=O)Nc1ccc(Br)cc1 (configuration not stated) | 14.2
47 | COc1ccc(OP(C)(=O)Nc2ccccn2)cc1 (configuration not stated) | 11.2
48 | CN(C)CCOC(=O)C(O)(c1ccccc1)C1CCCC1 (configuration not stated) | 8.11
49 | Cc1nc2ccc3ccccc3c2o1.O=[N+]([O-])c1cc([N+](=O)[O-])c(O)c([N+](=O)[O-])c1 | 13.2
50 | CP(=O)(Nc1ccc(Cl)cc1Cl)Oc1ccccc1 (configuration not stated) | 23.8
51 | CP(=O)(OCCOc1ccccc1)OCCOc1ccccc1 | 18.9
52 | Cc1cc(C)cc(OP(C)(=O)Nc2cccc(C(F)(F)F)c2)c1 (configuration not stated) | 13.8
53 | COc1ccccc1OP(C)(=O)Nc1ccc(C)c(C)c1 (configuration not stated) | 2.54
54 | COc1ccc(OP(C)(=O)Nc2ccccc2Br)cc1 (configuration not stated) | 5.22
55 | Nc1ccc2c(ccc3cccnc32)n1.O=[N+]([O-])c1cc([N+](=O)[O-])c(O)c([N+](=O)[O-])c1 | 23.9
56 | CCOC(=O)c1ccc(NP(C)(=O)Oc2ccc(Cl)cc2)cc1 (configuration not stated) | 12.9
57 | CP(=O)(OC12CC3CC(CC(C3)C1)C2)OC12CC3CC(CC(C3)C1)C2 | 22.4
58 | COc1ccccc1OP(C)(=O)Nc1ccccc1Br (configuration not stated) | 10
59 | CC(C)(C)c1ccc(OP(C)(=O)O)cc1 | -5.35
60 | CP(=O)(Nc1ccc(Cl)cc1)Oc1ccc(F)cc1 (configuration not stated) | 24.3
61 | CN(C)C(=O)c1c([N+](=O)[O-])cc([N+](=O)[O-])cc1[N+](=O)[O-] | 51.4
62 | COc1ccc(OP(C)(=O)Nc2ccc(Br)cc2)cc1 (configuration not stated) | 19.4
63 | CCN(CC)CC(O)COC(=O)C(O)(c1ccccc1)C1CCCCC1 (configuration not stated) | 0.69
64 | O=C(OCCCN1CCCC1)C(O)(c1ccccc1)C1CCCCC1 (configuration not stated) | 8.78
65 | COc1ccccc1OP(C)(=O)Nc1c(C)n(C)n(-c2ccccc2)c1=O (configuration not stated) | 2.31
66 | CCc1ccc(OP(C)(=O)Nc2cccnc2)cc1 (configuration not stated) | -4.61

Row | SMILES | inhibition [%]
67 | CP(=O)(Oc1ccccc1)N1CCOC1=O (configuration not stated) | -6.11
68 | CP(=O)(Nc1ccc2c(c1)OCCO2)Oc1ccccc1 (configuration not stated) | 2.11
69 | Cc1ccccc1NP(C)(=O)Nc1ccccc1C | -2.57
70 | CP(=O)(Nc1ccc(SC(F)(F)F)cc1)Oc1ccc(F)cc1 (configuration not stated) | 30.9
71 | CCOP(C)(=S)SCC(=O)NC(C)(CC)C(=O)O (configuration not stated) | -0.24
72 | O=[N+]([O-])c1ccc(OP2(=O)COCCO2)cc1 (configuration not stated) | 0.28
73 | O=[N+]([O-])c1cc([N+](=O)[O-])c(NCC2CCS(=O)(=O)C2)c([N+](=O)[O-])c1 (configuration not stated) | 74.3
74 | COc1ccc(OP(C)(=O)Nc2cccc(Br)c2)cc1 (configuration not stated) | 9.71
75 | CN(C)CCOC(=O)C(O)(c1ccccc1)C1CCCCC1 (configuration not stated) | 19.6
76 | COc1ccc(NP(C)(=O)Oc2ccccc2OC)cc1 (configuration not stated) | -7.92
77 | CCN(CC)CCCOC(=O)C(O)(c1ccccc1)C1CCCCC1 (configuration not stated) | -1.44
78 | CP(=O)(Nc1ccccc1)Oc1ccc(F)cc1 (configuration not stated) | -6.01
79 | CCCCCOc1ccc(NP(C)(=O)Oc2ccc(Cl)cc2Cl)cc1 (configuration not stated) | 75.7
80 | O=[N+]([O-])c1cc([N+](=O)[O-])c(OC2CCCCC2O)c([N+](=O)[O-])c1 (configuration not stated) | 30.9
81 | CCOC(=O)c1ccc(NP(C)(=O)Oc2ccc(F)cc2)cc1 (configuration not stated) | 7.69
82 | COc1ccc(OP(C)(=O)Nc2ccc(SC(F)(F)F)cc2)cc1 (configuration not stated) | 31.4
83 | O=C(OC1CN2CCC1CC2)c1ccc([N+](=O)[O-])cc1 (configuration not stated) | 7.95
84 | O=C(OCCN1CCN(CCOCc2ccccc2)CC1)C(O)(c1ccccc1)c1ccccc1 | -13.3
85 | COc1ccc2c(c1O)-c1c(O)c(OC)cc3c1[C@H](C2)[N+](C)(C)CC3.O=[N+]([O-])c1cc([N+](=O)[O-])c([O-])c([N+](=O)[O-])c1[O-] | 7.84
86 | CP(=O)(Nc1ccccc1F)Oc1ccccc1 (configuration not stated) | -1.95
87 | CC(C)c1ccc(OP(C)(=O)Nc2ccc(SC(F)(F)F)cc2)cc1 (configuration not stated) | 45.8
